Compound potency records, mixed from different reports. Data source: NIAID ChemDB in PubChem.

Shared fields: tests in culture; organism: HIV-1; method: MTT; read-out: EC50

An empty or dashed field is not shown.

Cc1cc(C#Cc2ccc(C(=O)O)cc2)cc(C)c1Oc1ccnc(Nc2ccc(C#N)cc2)n1 ; strain: IIIB ; mutations: RES056 ; cell line: MT-4 ; result: 1.494 µM
C=C1[C@H](CO)[C@@H](O)C[C@@H]1n1cnc2c(=O)[nH]c(N)nc21 ; strain: IIIB ; mutations: F227L and V106A ; cell line: MT-4 ; result: 0.014 µM
Cc1cc(C#Cc2cccnc2)cc(C)c1Oc1ccnc(Nc2ccc(C#N)cc2)n1 ; strain: IIIB ; mutations: F227L + V106A ; cell line: MT-4 ; result: 0.209 µM
N#Cc1cc(Cl)cc(Oc2c(Br)ccc(Cn3c(=O)[nH]c4nnccc43)c2F)c1 ; mutations: Wild type ; cell line: MT-4 ; result: 0.004 µM
Cc1cc(C)c(Oc2ccc([N+](=O)[O-])c(NC3CCN(Cc4ccncc4)CC3)n2)c(C)c1 ; strain: IIIB ; mutations: Resistant strain (K103N + Y181C) ; cell line: MT-4 ; result: >239 µM
O=C(O)c1cc2cc(O)c(O)cc2[nH]1 ; strain: IIIB ; cell line: MT-4 ; result: 12 µM
Cc1c(CCC2CCCCC2)nc(SCC(=O)c2ccccc2)[nH]c1=O ; strain: IIIB ; cell line: MT-4 ; result: 1.72 µM
Cc1cc(C#Cc2cccc(N)c2)cc(C)c1Oc1ccnc(NC2CCN(Cc3ccc(C#N)cc3)CC2)n1 ; strain: IIIB ; mutations: E138K ; cell line: MT-4 ; result: >0.261 µM
c1cc(CCNCCCN2CCOCC2)ccc1CCNCCCN1CCOCC1 ; cell line: MT-4 ; result: 49.52 µM
C#Cc1ccc(Nc2nccc(Oc3c(C)cc(-c4cn(CC(=O)Nc5ccc(S(C)(=O)=O)cc5)nn4)cc3C)n2)cc1 ; strain: IIIB ; mutations: F227L and V106A ; cell line: MT-4 ; result: >6.36 µM
O=C(CSc1nc(CCC2CCCCC2)cc(=O)[nH]1)c1ccc(F)cc1 ; strain: IIIB ; cell line: MT-4 ; result: 79.9 µM
C#Cc1ccc(Nc2nccc(Oc3c(C)cc(-c4cn(CC(=O)OC)nn4)cc3C)n2)cc1 ; strain: IIIB ; mutations: L100I ; cell line: MT-4 ; result: >10.35 µM
N#Cc1cc(Cl)cc(Oc2c(Br)ccc(Cn3[nH]c(=O)[nH]c3=O)c2F)c1 ; mutations: Wild type ; cell line: MT-4 ; result: 0.003 µM
COc1ccc(C(=O)CSc2nc(C(C)CC3CCCCC3)c(C)c(=O)[nH]2)cc1 ; strain: IIIB ; cell line: MT-4 ; result: 0.93 µM
Cc1cn([C@H]2C[C@H](N=[N+]=[N-])[C@@H](CO)O2)c(=O)[nH]c1=O ; mutations: K103N mutant ; cell line: MT-4 ; result: 0.008 µM
Cc1cc(C#Cc2ccccc2)cc(C)c1Oc1ccnc(Nc2ccc(C#N)cc2)n1 ; strain: IIIB ; mutations: L100I ; cell line: MT-4 ; result: 1.01 µM
N#Cc1cc(Cl)cc(Oc2c(Br)ccc(Cn3cc(Cl)c(=O)[nH]c3=O)c2F)c1 ; strain: K103N/Y181C ; mutations: NNRTI-resistant (RT K103N/Y181C) ; cell line: MT-4 ; result: 0.01 µM
Cc1cc(C#Cc2cccc(N)c2)cc(C)c1Oc1ccnc(NC2CCN(Cc3cccc(C(N)=O)c3)CC2)n1 ; strain: IIIB ; mutations: Y181C ; cell line: MT-4 ; result: 0.109 µM
O=C(NCCc1ccc(O)c(O)c1)c1cc2cc(O)c(O)cc2[nH]1 ; strain: IIIB ; cell line: MT-4 ; result: 46 µM
Nc1ncnc2c1ncn2[C@H]1CC[C@](OCP(=O)(O)O)(C(F)(F)F)C1 ; strain: LAI ; cell line: PBMC ; result: 8.4 µM
Oc1cccc(CN(CCN2CCCCC2)CC2CCCN(C3CCCC3)C2)c1 ; strain: NL4-3 ; cell line: MT-4 ; result: 1.5 µM
NC(=O)c1[nH]c2ccc(Cl)cc2c1S(=O)(=O)c1ccccc1 ; strain: WILD TYPE ; cell line: C8166 ; result: 0.003 µM
Oc1ccccc1CN(CCN1CCCCC1)CC1CCCN(C2CCCC2)C1 ; strain: NL4-3 ; cell line: MT-4 ; result: 2.6 µM
O=C(Cc1ccc(CC(=O)NCCCn2ccnc2)cc1)NCCCn1ccnc1 ; cell line: MT-4 ; result: >306 µM
Cc1cc(C)c(Nc2ccc([N+](=O)[O-])c(NC3CCN(Cc4ccc(C(N)=O)cc4)CC3)n2)c(C)c1 ; strain: IIIB ; mutations: Resistant strain (K103N + Y181C) ; cell line: MT-4 ; result: >25 µM
c1cc(CCNCCN2CCOCC2)ccc1CCNCCN1CCOCC1 ; cell line: MT-4 ; result: >320.1 µM
Cc1cc(C#N)cc(C)c1Oc1ccc([N+](=O)[O-])c(NC2CCN(Cc3ccncc3)CC2)n1 ; strain: IIIB ; cell line: MT-4 ; result: 0.039 µg/mL
N#Cc1cc(Cl)cc(Oc2c(Br)ccc(Cn3c(=O)[nH]c4ncccc43)c2F)c1 ; strain: K103N/Y181C ; mutations: NNRTI-resistant (RT K103N/Y181C) ; cell line: MT-4 ; result: 0.02 µM
c1cc(CNCCN2CCCC2)ccc1CNCCN1CCCC1 ; cell line: MT-4 ; result: 30.9 µM
Cc1ccnc2c1NC(=O)c1cccnc1N2C1CC1 ; strain: IIIB ; mutations: F227L and V106A ; cell line: MT-4 ; result: >15.02 µM
Cc1cc(C#N)cc(C)c1Oc1ccc(N)c(NC2CCN(Cc3ccc(S(C)(=O)=O)cc3)CC2)n1 ; strain: IIIB ; mutations: Resistant strain (K103N + Y181C) ; cell line: MT-4 ; result: 0.99 µM
Cc1cc(C#Cc2ccccc2N)cc(C)c1Oc1ccnc(Nc2ccc(C#N)cc2)n1 ; strain: IIIB ; mutations: E138K ; cell line: MT-4 ; result: 0.8 µM
CCc1c(CCC2CCCCC2)nc(SCC(=O)c2ccccc2)[nH]c1=O ; strain: IIIB ; cell line: MT-4 ; result: 0.1 µM
N#Cc1cc(Cl)cc(Oc2c(Br)ccc(Cn3c(=O)[nH]c4ccccc43)c2F)c1 ; strain: K103N/Y181C ; mutations: NNRTI-resistant (RT K103N/Y181C) ; cell line: MT-4 ; result: 0.046 µM
Cc1cc(C#N)cc(C)c1Oc1nc(Nc2ccc(C#N)cc2)ncc1SCC(=O)N1CCSCC1 ; mutations: RES056 ; cell line: MT-4 ; result: 3.91 µM
Cc1cc(C#Cc2ccc(N)cc2)cc(C)c1Oc1ccnc(Nc2ccc(C#N)cc2)n1 ; strain: IIIB ; mutations: F227L + V106A ; cell line: MT-4 ; result: 0.778 µM
CC(CC1CCCCC1)c1cc(=O)[nH]c(SCC(=O)c2ccccc2)n1 ; strain: IIIB ; cell line: MT-4 ; result: 9.58 µM
COc1cc(C(c2ccc3c(c2)OCO3)C(C(=O)O)C(CO)CO)ccc1O ; strain: IIIB ; cell line: C8166 ; result: 2.97 µg/mL
N#Cc1cc(Cl)cc(Oc2c(Br)ccc(CN3CC(=O)NC3=O)c2F)c1 ; mutations: Wild type ; cell line: MT-4 ; result: 0.004 µM
O=C(NCCNC(=O)c1cc2cc(O)c(O)cc2[nH]1)c1cc2cc(O)c(O)cc2[nH]1 ; strain: IIIB ; cell line: MT-4 ; result: >153 µM
Cc1ccnc2c1NC(=O)c1cccnc1N2C1CC1 ; strain: IIIB ; mutations: E138K ; cell line: MT-4 ; result: 0.158 µM

A second listing of 5 rows from above:

SMILES | strain | mutations | cell line | result
O=C(Cc1ccc(CC(=O)NCCCn2ccnc2)cc1)NCCCn1ccnc1 | - | - | MT-4 | >306 µM
N#Cc1cc(Cl)cc(Oc2c(Br)ccc(Cn3c(=O)[nH]c4ncccc43)c2F)c1 | K103N/Y181C | NNRTI-resistant (RT K103N/Y181C) | MT-4 | 0.02 µM
N#Cc1cc(Cl)cc(Oc2c(Br)ccc(Cn3[nH]c(=O)[nH]c3=O)c2F)c1 | - | Wild type | MT-4 | 0.003 µM
N#Cc1cc(Cl)cc(Oc2c(Br)ccc(CN3CC(=O)NC3=O)c2F)c1 | - | Wild type | MT-4 | 0.004 µM
C#Cc1ccc(Nc2nccc(Oc3c(C)cc(-c4cn(CC(=O)OC)nn4)cc3C)n2)cc1 | IIIB | L100I | MT-4 | >10.35 µM

Neighbouring rows are from separate reports. ECn: concentration that inhibits the pathogen or its effect by n%.